Anti-infective test results gathered from many reports (values: NIAID ChemDB through PubChem).

Shared fields: enzyme or target tests; organism: HIV-1; protein: Reverse transcriptase; measure: fold resistance

Blank or dashed fields: not listed here.

compound | strain or isolate | mutations | method | result
CCN1c2ncc(CCOc3ccc4cc(C(=O)NN)ccc4c3)cc2C(=O)N(C)c2cccnc21 |  | RT-Y188L | nucleotide incorporation / radiometric | >10
CCc1ccc(-n2c(Br)nnc2SCC(=O)Nc2ccc(C(=O)NCC(O)CO)cc2Cl)c2ccccc12 |  | RT-Y188L | nucleotide incorporation / radiometric | >2
O=c1cc(Cc2ccccc2)nc(SCCCCO)[nH]1 |  | RT-Y188L |  | 2.07
Cc1ccc2c(C)cc(C)c(-n3c(SCC(=O)Nc4ccc(S(N)(=O)=O)cc4C)nnc3C(F)F)c2n1 |  | RT-Y181C | nucleotide incorporation / radiometric | >2
CCN1c2ncc(CCOc3ccc(CCC(=O)O)c4c3CCCC4)cc2C(=O)N(C)c2cccnc21 |  | RT-Y188L | nucleotide incorporation / radiometric | >10
Cc1c(Cc2ccccc2)nc(SCCCCO)[nH]c1=O |  | RT-V179D |  | 1.64
CCc1ccc(-n2c(Br)nnc2SCC(=O)Nc2ccc(S(=O)(=O)O)cc2Br)c2ccccc12 |  | RT-Y188L | nucleotide incorporation / radiometric | >1
CCN1c2ncc(CCOc3ccc(CC(=O)O)c4ccccc34)cc2C(=O)N(C)c2ccc(C)nc21 |  | RT-Y188L | nucleotide incorporation / radiometric | >10
Cc1cc(S(N)(=O)=O)ccc1NC(=O)CSc1nnc(C(F)F)n1-c1ccc(C)c2c1CCCC2 |  | RT-Y188L | nucleotide incorporation / radiometric | >2
CC(C)=CCOc1cc(NC(=S)c2ccoc2C)ccc1Cl |  | RT-Y188L |  | >31.25
COc1ccc2c(C3CC3)ccc(-n3c(Br)nnc3SCC(=O)Nc3ccc(S(N)(=O)=O)cc3Cl)c2c1 |  | RT-Y188L | nucleotide incorporation / radiometric | >1
CCN1c2ncc(CCOc3ccc(CC(=O)NN)c4ccccc34)cc2C(=O)N(C)c2ccc(Cl)nc21 |  | RT-Y188L | nucleotide incorporation / radiometric | 1–10
Cc1cc(S(N)(=O)=O)ccc1NC(=O)COc1ccccc1C(=O)c1cc(Cl)cc(C#N)c1 | NNRTI-resistant | RT-K103N Y181C | nucleotide incorporation / radiometric | 0.6
CCN1c2ncc(CCOc3ccc(C(C)CC(=O)O)c4ccccc34)cc2C(=O)N(C)c2cccnc21 |  | RT-V106A | nucleotide incorporation / radiometric | >10
NS(=O)(=O)c1ccc(NC(=O)CSc2nnc(Cl)n2-c2ccc(C3CC3)c3ccccc23)c(Cl)c1 |  | RT-Y188L | nucleotide incorporation / radiometric | >2
Cc1cc(C)cc(S(=O)(=O)c2c(C(=O)NC(C)C(N)=O)[nH]c3ccc(Cl)cc23)c1 |  | RT-Y181I | nucleotide incorporation / radiometric | 43.3
Cc1cc(S(N)(=O)=O)ccc1NC(=O)CSc1nnc(Br)n1-c1ccc(F)c2ccccc12 |  | RT-Y188L | nucleotide incorporation / radiometric | >2
NC(=O)c1[nH]c2ccc(Cl)cc2c1S(=O)(=O)c1ccccc1 |  | RT-Y188L | nucleotide incorporation / radiometric | 1000
CCN1c2ncc(CCOc3ccc(NC(=O)NCC(=O)O)cc3C)cc2C(=O)N(C)c2cccnc21 | IIIB | RT-K103N Y181C | nucleotide incorporation / radiometric | >2
CC(C)=CCOc1cc(NC(=S)c2ccsc2C)ccc1Cl |  | RT-Y181I |  | 6
Cc1occc1C(=S)Nc1ccc(Cl)c(/C=N/OC(C)(C)C)c1 |  | RT-V106A | nucleotide incorporation / radiometric | 3
CC[C@H](C)[C@H](NC(=O)c1ccc(NC(=O)CSc2nnc(Br)n2-c2ccc(C3CC3)c3ccccc23)c(Cl)c1)C(=O)O |  | RT-Y181C | nucleotide incorporation / radiometric | >1
CCN1c2ncc(CCOc3ccc(CC(=O)NN)c4ccccc34)cc2C(=O)N(C)c2cccnc21 |  | RT-Y188L | nucleotide incorporation / radiometric | 1–10
CCc1cc(CCc2nc3ccccc3o2)c(=O)[nH]c1C |  | RT-Y181F | nucleotide incorporation | 0.6
COC(=O)NCCCCNc1nc(Cc2ccccc2)c(C)c(=O)[nH]1 |  | RT-L100I |  | 3.04
CCN1c2ncc(CCOc3ccc(-c4ccn(CC(=O)O)n4)cc3)cc2C(=O)N(C)c2cccnc21 | IIIB | RT-K103N Y181C | nucleotide incorporation / radiometric | >2
CCc1ccc(-n2c(Br)nnc2SCC(=O)Nc2ccc(C(=O)NCCC#N)cc2Cl)c2ccccc12 |  | RT-Y188L | nucleotide incorporation / radiometric | >1
CCN1c2ncc(CCOc3ccc(-c4c[n+]([O-])ccc4C)cc3C)cc2C(=O)N(C)c2cccnc21 | IIIB | RT-K103N Y181C | nucleotide incorporation / radiometric | 1
COc1cccc2c(-n3c(Br)nnc3SCC(=O)Nc3ccc(C(=O)O)cc3Cl)cccc12 |  | RT-Y181C | nucleotide incorporation / radiometric | >1
C=CCO/N=C/c1cc(NC(=S)c2ccoc2C)ccc1Cl |  | RT-L108I | nucleotide incorporation / radiometric | >8.33
CCN1c2ncc(CCOc3cccc4c3ccc[n+]4[O-])cc2C(=O)Nc2c(C)cc(Cl)nc21 |  | RT-K103N Y181C | nucleotide incorporation / radiometric | 13
CCc1ccc(-n2c(SCC(=O)Nc3ccc(C(=O)O)cc3C)nnc2C(F)F)c2ccccc12 |  | RT-Y188L | nucleotide incorporation / radiometric | >2
CCN1c2ncc(CCOc3ccc(CC(=O)O)c4ccccc34)cc2C(=O)N(C)c2cccnc21 |  | RT-Y188L | nucleotide incorporation / radiometric | >10
CCCc1ccc(-n2c(Br)nnc2SCC(=O)Nc2ccc(S(N)(=O)=O)cc2C)c2ccccc12 |  | RT-Y188L | nucleotide incorporation / radiometric | >2
CCOCn1c(Sc2ccccc2)c(CC)c(=O)[nH]c1=O |  | RT-Y181C | nucleotide incorporation | 14
O=C(CSc1nnc(Br)n1-c1ccc(C2CC2)c2ccccc12)Nc1ccc(C(=O)O)cc1Cl |  | RT-Y188L | nucleotide incorporation / radiometric | >1
CCc1ccc(-n2c(Br)nnc2SCC(=O)Nc2ccc(C(=O)N[C@H](C(=O)OC)C(C)C)cc2Cl)c2ccccc12 |  | RT-Y188L | nucleotide incorporation / radiometric | <1
CCc1ccc(-n2c(CF)nnc2SCC(=O)Nc2ccc(S(N)(=O)=O)cc2Cl)c2c1CCCC2 |  | RT-Y188L | nucleotide incorporation / radiometric | >2
CCN1c2ncc(CCOc3ccc(-c4ccc(CC(=O)O)cc4O)cc3C)cc2C(=O)N(C)c2cccnc21 | IIIB | RT-K103N Y181C | nucleotide incorporation / radiometric | >1
CCOC(=O)CNC(=O)c1ccc(NC(=O)CSc2nnc(Br)n2-c2ccc(C3CC3)c3ccccc23)c(Cl)c1 |  | RT-Y181C | nucleotide incorporation / radiometric | >1
Cc1ccc2ccccc2c1-n1c(Br)nnc1SC(C)C(=O)Nc1ccc(S(N)(=O)=O)cc1Cl |  | RT-Y188L | nucleotide incorporation / radiometric | >2
CCN1c2ncc(CCOc3ccc4cc(CC(=O)NN)ccc4c3)cc2C(=O)N(C)c2cccnc21 |  | RT-Y188L | nucleotide incorporation / radiometric | 1–10
CCN1c2ncc(CCOc3ccc(-c4ccc[n+]([O-])c4C)cc3C)cc2C(=O)N(C)c2cccnc21 | IIIB | RT-K103N Y181C | nucleotide incorporation / radiometric | 1
Cc1ccc2c(C)ccc(-n3c(Br)nnc3SCC(=O)Nc3ccc(S(N)(=O)=O)cc3Br)c2c1 |  | RT-Y188L | nucleotide incorporation / radiometric | >1
Cc1occc1C(=S)Nc1ccc(Cl)c(C(=O)OCC2CC2)c1 |  | RT-P236L | nucleotide incorporation / radiometric | 2
NS(=O)(=O)c1ccc(NC(=O)CSc2nnc(C(F)F)n2-c2ccc(C3CC3)c3ccccc23)c(Cl)c1 |  | RT-Y188L | nucleotide incorporation / radiometric | >2
CCN1c2ncc(CCOc3ccc(-c4ccc(Cl)c(CC(=O)O)c4)cc3C)cc2C(=O)N(C)c2cccnc21 | IIIB | RT-K103N Y181C | nucleotide incorporation / radiometric | 1
O=C(O)CNC(=O)c1ccc(NC(=O)CSc2nnc(Br)n2-c2ccc(C3CC3)c3ccccc23)c(Cl)c1 |  | RT-Y188L | nucleotide incorporation / radiometric | >1
CCCCCCNC(=O)c1ccc(NC(=O)CSc2nnc(Br)n2-c2ccc(CC)c3ccccc23)c(Cl)c1 |  | RT-Y188L | nucleotide incorporation / radiometric | >2
CCN1c2ncc(CCOc3ccc(/C=C(\C)C(=O)O)c4ccccc34)cc2C(=O)Nc2c(C)cc(Cl)nc21 |  | RT-V106A | nucleotide incorporation / radiometric | 1–10
CCc1cc(C2CC2)ccc1-n1c(Br)nnc1SCC(=O)Nc1ccc(C(=O)O)cc1Cl |  | RT-Y188L | nucleotide incorporation / radiometric | >2
CCc1ccc(-n2c(Br)nnc2SCC(=O)Nc2ccc(C(=O)NCC3CCCO3)cc2Cl)c2ccccc12 |  | RT-Y181C | nucleotide incorporation / radiometric | >1

Conditions beyond the fields shown may differ between rows. Fold resistance: result on the changed form divided by that on wild type. Two numbers with a dash give a range or band.